From publication PMC12035560, “Structures of Mycobacterium tuberculosis isoprenyl diphosphate synthase Rv2173 in substrate-bound forms” (Acta Crystallographica Section F: Structural Biology …, 2025)

Amino acid sequences for entries named in this document (tags omitted). A change or cut given only in a name is not applied to a line headed by its entry.
UniProt O53507: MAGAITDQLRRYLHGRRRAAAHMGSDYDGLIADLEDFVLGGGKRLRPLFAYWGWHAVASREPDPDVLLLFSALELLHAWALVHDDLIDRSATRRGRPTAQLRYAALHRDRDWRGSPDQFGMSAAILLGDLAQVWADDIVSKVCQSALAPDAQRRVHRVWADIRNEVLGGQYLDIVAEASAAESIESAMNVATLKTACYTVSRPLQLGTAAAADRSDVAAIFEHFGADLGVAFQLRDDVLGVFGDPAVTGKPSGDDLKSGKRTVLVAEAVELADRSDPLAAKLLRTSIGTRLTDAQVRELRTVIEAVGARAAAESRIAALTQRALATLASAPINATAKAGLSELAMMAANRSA

Target: T1, Rv2173 (Mycobacterium tuberculosis, UniProt O53507)
T1 construct: gene idsA2

SMILES: C=C(C)CCOP(=O)(O)OP(=O)(O)O [IPP]
- X-ray crystal structure, 2.20 A, co-crystallization: with the IPP occupying the putative allylic/DMAPP site, coordinating all three metal ions
